The nature of the data set: Toxicokinetics of unbound DON in plasma after immunisation (LC-MS/MS). The format is in vivo. The note with it: pig plasma; DON bolus 0.05 mg/kg at 11 weeks of age; DON-KLH = pigs immunised IM at 3 and 6 weeks, DON = control pigs.

`CC1=C[C@H]2O[C@@H]3[C@H](O)C[C@](C)([C@@]2(CO)[C@H](O)C1=O)[C@]31CO1` [DON, deoxynivalenol] returned a tmax of unbound DON of 2.19 h.

The values above are taken from patent US20240024446A1 (priority 2020, published 2024).
